Results deposited as PubChem BioAssay AID504761 (Drosophila RNAi Screening Center, 2011)
Aim: 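Fly genes whose silencing reduces dengue virus type 2 infection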 (primary screen). Cells: D.Mel-2 cells from Drosophila. Reagent: long dsRNA against Drosophila genes. Treatment: infection with dengue virus type 2; dose and infection time not stated. Read-out: 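Per well on two replicate plates, imaging gave the percent of cells positive for viral envelope protein, ranked by infection, and a nuclear count of cells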. Scale: infection score: higher = more virus-infected cells; cell count: higher = more cells in the well. Hit rule: 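Very low infection ranking in both replicate wells (chance probability at most 0.065), then a retest showing infection dropped 1.5-fold or more at p below 0.05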. Calls: active = confirmed: knock-down lowers infection; inactive = not picked or not confirmed.
In all, the deposit lists about 22,000 reagents; shown is a random part of those with a known target gene and a result. Of all reagents, 116 (0.52%) got an active call. 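Calls depend on retest data that are not deposited; infection was ranked per plate without normalising between plates; the unit of the infection score is not given.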 Raw values are not corrected between plates. Names joined by + are all predicted targets of the reagent. Not all columns of the deposit are shown. The record does not give: the amount of reagent, the time to read-out.

fmt [DRSC09717] — infection score, replicate 1: 5.9; cell count, replicate 1: 6200; activity call: inactive
tomb + Cap-D3 [DRSC27851] — infection score, replicate 1: 11.8; cell count, replicate 1: 5532; activity call: inactive
CanA1 [DRSC16600] — infection score, replicate 1: 1.23; cell count, replicate 1: 5542; activity call: inactive
CanA1 [DRSC25868] — infection score, replicate 1: 2.55; cell count, replicate 1: 6189; activity call: inactive
PGRP-LD + Pmi [DRSC10512] — infection score, replicate 1: 6.92; cell count, replicate 1: 6544; activity call: inactive
PGRP-LD + Pmi [DRSC10513] — infection score, replicate 1: 2.39; cell count, replicate 1: 6032; activity call: inactive
CG11307 [DRSC11648] — infection score, replicate 1: 2.04; cell count, replicate 1: 5968; activity call: inactive
CG11307 [DRSC26602] — infection score, replicate 1: 0.8; cell count, replicate 1: 6626; activity call: inactive
ng4 [DRSC18805] — infection score, replicate 1: 2; cell count, replicate 1: 6434; activity call: inactive
CAH9 [DRSC15963] — infection score, replicate 1: 4.71; cell count, replicate 1: 6799; activity call: inactive
CAH9 [DRSC29677] — cell count, replicate 1: 291; activity call: inactive
zen2 [DRSC12633] — infection score, replicate 1: 1.79; cell count, replicate 1: 6660; activity call: inactive
zen2 [DRSC27908] — infection score, replicate 1: 17.1; cell count, replicate 1: 6518; activity call: inactive

Continued (3 carried over from the part before).
CAH9 [DRSC29677] — cell count, replicate 1: 291; activity call: inactive
zen2 [DRSC12633] — infection score, replicate 1: 1.79; cell count, replicate 1: 6660; activity call: inactive
zen2 [DRSC27908] — infection score, replicate 1: 17.1; cell count, replicate 1: 6518; activity call: inactive
CG11192 [DRSC06057] — infection score, replicate 1: 5.22; cell count, replicate 1: 5780; activity call: inactive
CG11192 [DRSC25902] — infection score, replicate 1: 4.92; cell count, replicate 1: 6733; activity call: inactive
CG14624 [DRSC18634] — infection score, replicate 1: 0.47; cell count, replicate 1: 6170; activity call: inactive
CG14624 [DRSC25253] — infection score, replicate 1: 5.01; cell count, replicate 1: 6387; activity call: inactive
Taf5 [DRSC07562] — infection score, replicate 1: 22.9; cell count, replicate 1: 5485; activity call: inactive
Taf5 [DRSC29351] — infection score, replicate 1: 28.4; cell count, replicate 1: 4294; activity call: inactive
sncRNA:430e + His2A:CG33859 + His2A:CG33817 + 37 more [DRSC21264] — infection score, replicate 1: 2.17; cell count, replicate 1: 5295; activity call: inactive
stnB + stnA [DRSC20969] — infection score, replicate 1: 27.6; cell count, replicate 1: 2025; activity call: inactive
stnB + stnA [DRSC21112] — infection score, replicate 1: 2.15; cell count, replicate 1: 6617; activity call: inactive
stnB + stnA [DRSC21113] — infection score, replicate 1: 3.34; cell count, replicate 1: 6041; activity call: inactive
